# Laboratory results as given in US20230310414A1.
# Tested on: SARS-CoV-2 Spike (S) protein treated human macrophages
# Experiment: cell viability of Spike protein treated human macrophages
# Conditions: nanomolar concentrations, within 2 hours of treatment
smiles,measurement,value
O.O=C(OC[C@H]1O[C@@H](OC(=O)c2cc(O)c(O)c(O)c2)[C@H](OC(=O)c2cc(O)c(O)c(O)c2)[C@@H](OC(=O)c2cc(O)c(O)c(O)c2)[C@@H]1OC(=O)c1cc(O)c(O)c(O)c1)c1cc(O)c(O)c(O)c1,cell viability of treated macrophages,without compromising cell viability
